Several values for one entry are separate records, joined by “and”; a condition that tells them apart may be missing. Equal values may be shown once.
Test: Measurement of cellular concentration of Cx-SAM (LC-MS isotope ratio)
Parameters: species or system E. coli K-12
Conditions: LC-MS isotopic ratio-based method, cells grown in LB

Q: For `Nc1ncnc2c1ncn2[C@@H]1O[C@H](C[S+](CC[C@H](N)C(=O)[O-])CC(=O)O)[C@@H](O)[C@H]1O` (stereo partly drawn) [Cx-SAM, carboxy-S-adenosine-L-methionine], which “in vivo concentration in E. coli K-12” value is on record?
A: 0.5 ± 0.1 µM and 0.5 µM
